Test results reported in PMC4482694, “Machine Learning Models and Pathway Genome Data Base for Trypanosoma cruzi Drug Discovery” (PLoS Neglected Tropical Diseases, 2015).

Test system: T. cruzi CA-I/72
Experiment: Secondary screening (dose-response assay)
Type: cell-based, Trypanosoma cruzi
Conditions: dose-response curve
Procedure: T. cruzi CA-I/72 trypomastigotes were obtained from C2C12 infected-culture supernatants after 4–7 days of infection. Cultures were maintained at 37°C with 5% CO2. […] Compounds were added at 10 mM in 50 nl per well using a Biomek FX (Beckman Coulter) for a final 10 μM concentration in 50 μl total volume, and 2,500 parasites were added in 10 μl per well. The plate was incubated for 72 hours at 37°C with 5% CO2. After the incubation, the plate was fixed with the addition of 50 μl of 8% paraformaldehyde solution, followed by two successive washing steps using PBS. Finally, a staining solution containing 0.5 μg/ml of 4',6-diamidino-2-phenylindole (DAPI) was added to each well of the plate and incubated for at least 4 hours prior to reading. Images were acquired by an IN Cell Analyzer 2000 (GE Healthcare) and analyzed by IN Cell Analyzer Developer 1.6 software. […] Numbers of host cells and intracellular amastigotes were determined based on host cell and parasite nucleus quantification, providing a measure of growth inhibition during the first 72 h of post-infection treatment compared to untreated controls. […] The host cell viability was assessed based on the total number of cells divided by the average number of cells from untreated controls (0.1% DMSO), being <0.5 considered a cytotoxic compound. This assay was performed in duplicate.
The hit selection criteria: >50% activity at 10 μM and >0.5 host cell viability in the primary screening. To determine the potency of the hit compounds, we performed a dose-response assay. EC50 values of compounds were determined applying the same assay used in the primary screening. […] Then, 50 nl of each sample were diluted in 50 μl media (DMEM H-21) and added to the experimental plate followed by incubation at 37°C with 5% CO2 for 72 h.

| Compound | Hill slope | Hill slope (listed as Nitrofural) |
| --- | --- | --- |
| COc1ccc2cc1Oc1ccc(cc1)C[C@H]1c3cc(c(OC)cc3CCN1C)Oc1c(OC)c(OC)cc3c1[C@H](C2)N(C)CC3 [SC-0011496, Tetrandrine] | 1.95 | – |
| O=C1OCCN1/N=C/c1ccc([N+](=O)[O-])o1 [SC-0011742, Furazolidone] | 2.81 | – |
| NC(=O)N/N=C/c1ccc([N+](=O)[O-])o1 [SC-0011754, Nitrofural] | 1 | 1.00 |
| COc1ccc2nc3cc(Cl)ccc3c(Nc3cc(CN4CCCC4)c(O)c(CN4CCCC4)c3)c2n1 [SC-0011799, Pyronaridine] | 2.03 | – |
